Marks after values point to notes of the source that are not given here.
Tests used:
RhlR [1] = target: T1, RhlR (Pseudomonas aeruginosa, UniProt P54292); experiment: E. coli RhlR reporter agonism assay (JLD271/pJN105R2/pSC11-rhlI*); format: cell-based, P. aeruginosa; conditions: for Maximum Activation (%) / % activation: E. coli reporter; for Maximum Activation (%): highest activation at any concentration, relative to 1 mM BHL; for % activation: compound at 10 μM, RhlR activity relative to 1 mM BHL
Method: (§1) All media and reagents for bacterial culture were purchased from commercial sources. Bacteria were cultured in Luria-Bertani broth (LB) at 37° C. with shaking at 200 rpm unless otherwise noted. The bacterial reporter strains used for this study were (i) the heterologous E. coli strain JLD271 (ΔsdiA) harboring the RhlR expression plasmid pJN105R2 and the rhlI-lacZ transcriptional fusion reporter pSC11-rhlI*, (ii) the heterologous E. coli strain JLD271 (ΔsdiA) harboring the LasR expression plasmid pJN105L and the […] transcriptional fusion reporter pSC11, and (iii) the P. aeruginosa strain PAO-JP2 (ΔlasrhlI) harboring the rhlI-gfp transcriptional fusion reporter prhlI-LVAgfp. Reporter strains JLD271/pJN105R2/pSC11-rhlI* and JLD271/pJN105L/pSC11 were grown in LB containing 100 μg/mL ampicillin and 10 μg/mL gentamicin. Freezer stocks of bacterial strains were maintained at −80° C. in 1:1 LB:50% glycerol.
(§2) To evaluate the modulatory activities of library compounds on RhlR and LasR using E. coli reporters, the strains JLD271/pJN105R2/pSC11-rhlI* and JLD271/pJN105L/pSC11 were used, respectively, as previously described.^38, 51 The following modifications were used in the RhlR agonism reporter assay, non-native compounds (10 μM or 1 mM) were compared to 1 mM BHL as the positive control. Briefly, a subculture was prepared by diluting an overnight culture 1:10 with fresh media containing 100 μg/mL ampicillin and 10 μg/mL gentamicin, and was incubated until it had grown to OD600=0.45. In all assays, L-arabinose was added to a final concentration of 4 mg/mL to induce RhlR expression. For RhlR agonism assays, activities of test compounds were measured relative to 1 mM BHL (the concentration required to induce a maximal level of RhlR activity). For RhlR antagonism assays, test compounds were competed against a concentration of BHL approximately equal to its EC50 value (10 μM). Activity was measured relative to 10 μM BHL. Inhibition was calculated by subtracting 100% from the relative activity value. Thus, 0% inhibition mimics represents no competitive displacement of 10 μM BHL by a test compound. In all assays, modifications were made to the standard Miller assay protocol to accommodate the use of the chlorophenol red-β-D-galactopyranoside (CPRG) β-galactosidase substrate. After cell lysis, 150 μL of the aqueous layer was transferred from each well of a solvent-resistant 96-well microtiter plate to the wells of a new clear, flat-bottom 96-well microtiter plate. CPRG (4 mg/mL in phosphate-buffered saline) was added to each well in 25 μL volumes. Plates were incubated at 30° C. until the positive control wells developed a red color (approximately 30 min). The amount of processed CPRG substrate was assessed by measuring the absorbance of each well at 570 nm. Enzymatic activity was calculated using the following equation: adjusted Miller units=1000·Abs570/(OD600·t·V),
where t is the incubation time of substrate with lysate and V is the volume of culture lysed.
Because LuxR-type receptors are often unstable in solution, preventing the use of in vitro assays to directly assess small molecule agonism and antagonism, reporter gene assays represent a standard method for screening small-molecule libraries for LuxR-type receptor modulation. Previously reported strains for this purpose were used in the current study.^38 Synthetic N-butanoyl L-homoserine lactone (BHL), the native ligand of RhlR, was used as the positive control for receptor activation. Commonly, agonists are measured relative to maximum possible receptor activation within a particular assay medium;^40 because the dose-response curve of BHL is distinctly shallow in these RhlR reporters, a high concentration of BHL is required to maximally activate RhlR. In this study, activation of compounds was measured relative to that elicited by 1 mM BHL (the concentration of BHL used causes no aberrant growth effects in the reporter strain). […]

Sequences of proteins named here, by UniProt entry; tags and fusion partners are left off.
UniProt P54292, whole entry: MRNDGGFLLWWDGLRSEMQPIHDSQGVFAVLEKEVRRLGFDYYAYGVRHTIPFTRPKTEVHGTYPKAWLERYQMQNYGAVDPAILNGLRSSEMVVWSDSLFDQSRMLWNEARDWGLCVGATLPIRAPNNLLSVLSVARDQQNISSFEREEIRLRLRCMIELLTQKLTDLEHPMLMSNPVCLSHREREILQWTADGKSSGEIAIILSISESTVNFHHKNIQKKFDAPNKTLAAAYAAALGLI
UniProt P25084, whole entry: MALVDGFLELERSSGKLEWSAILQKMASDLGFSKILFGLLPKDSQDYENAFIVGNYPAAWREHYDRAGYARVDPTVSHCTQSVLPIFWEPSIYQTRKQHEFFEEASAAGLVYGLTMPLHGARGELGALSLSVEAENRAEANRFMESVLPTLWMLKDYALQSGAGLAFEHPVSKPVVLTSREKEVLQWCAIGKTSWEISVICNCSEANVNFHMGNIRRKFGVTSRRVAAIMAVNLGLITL

LasR = LasR (Pseudomonas aeruginosa, UniProt P25084); experiment: Selectivity of RhlR agonism over LasR agonism (E. coli LasR reporter JLD271/pJN105L/pSC11); format: cell-based, P. aeruginosa; conditions: RhlR % activity divided by LasR % activity, > = negligible activity in LasR reporter
Method: as §1, §2
LasR assays were processed using the protocol for the substrate ortho-nitrophenyl-β-galactoside (ONPG) as previously described elsewhere.^53; and LasR antagonism assays were performed versus the EC50 for OdDHL (2 nM).
The selectivity of certain compounds for RhlR over LasR was measured using a LasR reporter strain (details above). Table 6 provides a comparison of selectivity of RhlR agonism over LasR agonism for exemplary compounds. Table 7 provides a comparison of selectivity of RhlR antagonism over LasR antagonism for exemplary compounds.

RhlR [2] = target: T1, RhlR; experiment: E. coli RhlR reporter antagonism assay vs 10 μM BHL (JLD271/pJN105R2/pSC11-rhlI*); format: cell-based, P. aeruginosa; conditions: negative = agonism stronger than 10 μM BHL alone; for % inhibition (10 μM): compound at 10 μM in the presence of 10 μM BHL; for % inhibition (1 mM): compound at 1 mM in the presence of 10 μM BHL
RhlR [3] = target: T1, RhlR; experiment: P. aeruginosa RhlR reporter agonism assay (PAO-JP2/prhlI-LVAgfp); format: cell-based; conditions: highest activation at any concentration, relative to 1 mM BHL
Method: as §1, with “Freezer stocks of bacterial strains were maintained at −80° C. in 1:1 LB:50% glycerol.” left out
Plates were incubated at 37° C. for 6 h, and GFP production was monitored by using a Synergy 2 plate reader (λex=500 nm, λem=540 nm; BioTek, Winooski, Vt.) and quantified with Gen5 1.05 software (BioTek). The final OD600 for each well was measured to normalize GFP production to cell density. […]
Library compounds J18 and J24, as well as controls BHL and S4, were evaluated for potency in the native genetic background of RhlR by using the P. aeruginosa strain PAO-JP2 (ΔlasIrhlI) harboring the RhlR reporter plasmid prhlI-LVAgfp (Table 3). […]

RhlR [4] = target: T1, RhlR; experiment: as above; format: cell-based; conditions: read-out: EC50 for RhlR activation, 100 nM OdDHL present

## O=C(N[C@H]1CCOC1=O)C1CCCC1
RhlR [1]
  Maximum Activation (%): 100%
  % activation: 76%
LasR; tested concentration 1 mM
  Fold selectivity of RhlR agonists over LasR agonism: 4.4 fold
LasR; tested concentration 10 μm
  Fold selectivity of RhlR agonists over LasR agonism: 12 fold
RhlR [2]
  % inhibition (10 μM): −52%
  % inhibition (1 mM): −95%
RhlR [3]
  Maximum Activation (%): 106%

## C=CCCC(=O)N[C@H]1CCOC1=O
RhlR [1]
  Maximum Activation (%): 90%
  % activation: 54%
RhlR [1]; read-out: EC50 for RhlR activation, E. coli JLD271/pJN105R2/pSC11-rhlI*, concentrations ≤1 mM
  EC50: 7.93 µM
LasR; tested concentration 1 mM
  Fold selectivity of RhlR agonists over LasR agonism: 3.7 fold
LasR; tested concentration 10 μm
  Fold selectivity of RhlR agonists over LasR agonism: >54^b fold
RhlR [2]
  % inhibition (10 μM): −21%
  % inhibition (1 mM): −88%

## CCCC(=O)N[C@H]1CCCC1=O
RhlR [1]
  Maximum Activation (%): 92%
RhlR [4]
  EC50: 3.82 µM
LasR; tested concentration 1 mM
  Fold selectivity of RhlR agonists over LasR agonism: 11 fold
LasR; tested concentration 10 μm
  Fold selectivity of RhlR agonists over LasR agonism: >36^b fold
RhlR [2]
  % inhibition (10 μM): −37%
  % inhibition (1 mM): −82%
RhlR [3]
  Maximum Activation (%): 95%
